PubChem BioAssay AID504761, Drosophila RNAi Screening Center – 2011

- Test: 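Fly genes whose silencing reduces dengue virus type 2 infection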 (primary screen)
- Cells: D.Mel-2 cells from Drosophila
- Reagents: long dsRNA against Drosophila genes
- Conditions: infection with dengue virus type 2; dose and infection time not stated
- Read-out: 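Cells stained for dengue envelope protein and imaged; percent of infected cells per well on duplicate plates, ranked by infection, with stained nuclei counted for cell number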
- Scale: infection score: higher = more virus-infected cells; cell count: higher = more cells in the well
- Active means: 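Very low infection ranking in both replicate wells (chance probability at most 0.065), then a retest showing infection dropped 1.5-fold or more at p below 0.05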
- Meaning of the calls: active = confirmed: knock-down lowers infection; inactive = not picked or not confirmed
The deposit covers about 22,000 reagents; this is a random part of those with a known target gene and a result. Over the whole deposit, 116 (0.52%) are marked active. 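Calls depend on retest data that are not deposited; infection was ranked per plate without normalising between plates; the unit of the infection score is not given.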 The raw values are shown without normalisation. Names joined by + are all predicted targets of the reagent. Not given: the amount of reagent, the time to read-out.

The opening 2 entries, to show the layout:
| gene | DRSC id | infection score, replicate 1 | infection score, replicate 2 | cell count, replicate 1 | cell count, replicate 2 | Call |
| --- | --- | --- | --- | --- | --- | --- |
| DIP-alpha | DRSC17891 | 19.6 | 14.9 | 5174 | 6574 | inactive |
| DIP-alpha | DRSC23275 | 1.58 | 7.78 | 6014 | 6556 | inactive |

The listing, from the start:
| gene | DRSC id | infection score, replicate 1 | infection score, replicate 2 | cell count, replicate 1 | cell count, replicate 2 | Call |
| --- | --- | --- | --- | --- | --- | --- |
| DIP-alpha | DRSC17891 | 19.6 | 14.9 | 5174 | 6574 | inactive |
| DIP-alpha | DRSC23275 | 1.58 | 7.78 | 6014 | 6556 | inactive |
| CG9171 | DRSC03152 | 3.01 | 2.62 | 6319 | 6591 | inactive |
| CG9171 | DRSC21813 | 7.3 | 2.37 | 6521 | 7061 | inactive |
| CG9171 | DRSC24830 | 2.38 | 24 | 6341 | 5413 | inactive |
| CG33159 | DRSC08199 | 5.6 | 1.43 | 6389 | 6302 | inactive |
| CG7135 | DRSC20026 | 7.03 | 6.52 | 6172 | 6840 | inactive |
| CG7135 | DRSC29942 | 37.8 | 3.93 | 4424 | 6521 | inactive |
| kri | DRSC10515 | 2.73 | 1.72 | 6952 | 6630 | inactive |
| pes | DRSC03033 | 1.54 | 2.75 | 6312 | 6073 | inactive |
| pes | DRSC25954 | 6.63 | 2.05 | 6217 | 6144 | inactive |
| Prps | DRSC08994 | 0.85 | 1.09 | 6123 | 6257 | inactive |
| Prps | DRSC10707 | 3.11 | 1.81 | 6228 | 6701 | inactive |
| Prps | DRSC10708 | 2.41 | 2.17 | 6306 | 6640 | inactive |
| Dus2 | DRSC19591 | 4.71 | 3.51 | 6111 | 6093 | inactive |
| CG3502 | DRSC04381 | 24.8 | 22.1 | 6177 | 6351 | inactive |
| mio | DRSC00692 | 5 | 14.5 | 6541 | 6096 | inactive |
| mio | DRSC22056 | 3.04 | 9.08 | 7138 | 6067 | inactive |
| Blimp-1 | DRSC10496 | 3.06 | 3.82 | 5558 | 5547 | inactive |
| Blimp-1 | DRSC24305 | 0.86 | 0.53 | 6165 | 6228 | inactive |
| NfI | DRSC17158 | – | 11.2 | 395 | 3804 | inactive |
| Gr93d | DRSC21941 | 1.92 | 10.3 | 6827 | 6113 | inactive |
| fid | DRSC14885 | 2.7 | 2.42 | 6325 | 6572 | inactive |
| fid | DRSC16464 | 5.63 | 1.21 | 5772 | 6702 | inactive |
| fid | DRSC23529 | 1.65 | 1.71 | 6360 | 5902 | inactive |
| fid | DRSC25230 | 2.85 | 11.2 | 6853 | 6904 | inactive |
| Spn42Dd | DRSC05024 | 16.1 | – | 6234 | 377 | inactive |
| Spn42Dd | DRSC22060 | 6.09 | 5.13 | 6202 | 6294 | inactive |
| Mst87F | DRSC16747 | 1.79 | 14.5 | 6100 | 5053 | inactive |
| Mst87F | DRSC25350 | 11.2 | 8.39 | 5814 | 6320 | inactive |
| Cyp4d1 | DRSC17694 | 1.13 | 0.89 | 6182 | 6065 | inactive |
| Cyp4d1 | DRSC18456 | – | 7.36 | 302 | 3884 | inactive |
| Cyp4d1 | DRSC23948 | 0.6 | 2.47 | 6120 | 6001 | inactive |
| CG7920 | DRSC16346 | 7.41 | 7.39 | 6676 | 6708 | inactive |
| CG7920 | DRSC21594 | 38.4 | 25.4 | 4238 | 6201 | inactive |
| CG14439 | DRSC17931 | 3.65 | 4.69 | 6843 | 6979 | inactive |
| mthl13 | DRSC05238 | 3.85 | 2.98 | 5737 | 5778 | inactive |
| Cpr62Bb | DRSC08404 | 4.99 | 1.31 | 6253 | 6202 | inactive |
| Cpr62Bb | DRSC27624 | 5.13 | 15.9 | 6706 | 6216 | inactive |
| CG32263 | DRSC22431 | 0.98 | 0.85 | 6040 | 6386 | inactive |
| CG32263 | DRSC29009 | 11.1 | 11.1 | 2144 | 6545 | inactive |
| sc | DRSC18830 | 3.39 | 11.6 | 6580 | 5189 | inactive |
| sc | DRSC29307 | – | – | 432 | 311 | inactive |
| CG9915 | DRSC21565 | 1.7 | 9.19 | 6064 | 5625 | inactive |
| CG9915 | DRSC27327 | 2.09 | 3.87 | 6071 | 6043 | inactive |
| CG9173 | DRSC08635 | 2.98 | 7.96 | 6578 | 6445 | inactive |
| CG31419 | DRSC15771 | 9.54 | 9.82 | 5642 | 1976 | inactive |
| CG31419 | DRSC26294 | 14.7 | 11.8 | 5439 | 5851 | inactive |
| CG8837 | DRSC00711 | 9.61 | 1.62 | 6231 | 6609 | inactive |
| CG8837 | DRSC29440 | 23.4 | 9.1 | 5759 | 2406 | inactive |
| CheA75a | DRSC10807 | 12.5 | 10.4 | 6019 | 5988 | inactive |
| Or33b | DRSC03387 | 8.53 | 19 | 5966 | 5332 | inactive |
| CG15450 | DRSC20522 | 14.1 | 16.3 | 6026 | 5937 | inactive |
| Eig71Ed | DRSC11151 | 5.31 | 1.56 | 5819 | 6284 | inactive |
| otp | DRSC04050 | 3.36 | 4.12 | 6724 | 6965 | inactive |
| otp | DRSC04707 | 1.88 | 2.4 | 6753 | 7127 | inactive |
| otp | DRSC28164 | 12.9 | 4.42 | 6697 | 6610 | inactive |
| thoc5 | DRSC04327 | 17 | 28.7 | 5825 | 2561 | inactive |
| CG5697 | DRSC23479 | 4.72 | 2.1 | 6593 | 6226 | inactive |
| CNMaR | DRSC08992 | 3.02 | 2.95 | 6258 | 6642 | inactive |
| CNMaR | DRSC10224 | 2.83 | 2.77 | 6191 | 6091 | inactive |
| CG15740 | DRSC23079 | 1.53 | 10.9 | 6156 | 5488 | inactive |
| CG15740 | DRSC28880 | 9.8 | 1.11 | 3214 | 629 | inactive |
| CG2681 | DRSC18464 | 20 | 6.34 | 5887 | 6597 | inactive |
| CG2681 | DRSC24864 | 1.55 | 1.74 | 6056 | 5935 | inactive |
| CG14262 | DRSC14757 | 4.65 | 2.81 | 6496 | 6343 | inactive |
| CG6059 | DRSC15958 | 3.03 | 7.15 | 6987 | 6367 | inactive |
| Cds + Setx | DRSC27090 | 9.14 | 7.43 | 6607 | 7196 | inactive |
| Dna2 | DRSC18254 | 2.38 | 1.97 | 6811 | 6802 | inactive |
| slou | DRSC17058 | 5.01 | 0.5 | 1858 | 6402 | inactive |
| slou | DRSC25233 | 4.14 | 1.76 | 6372 | 6423 | inactive |
| Tmtc2 | DRSC24987 | 2.47 | 5.63 | 7003 | 6609 | inactive |
| JhI-21 | DRSC02161 | 12.7 | 7.3 | 6656 | 6533 | inactive |
| JhI-21 | DRSC29181 | 19.6 | 15 | 6012 | 6064 | inactive |
